Results of unrelated studies side by side (data: NIAID ChemDB).

All rows: enzyme or target tests; species: HIV-1; protein: Protease; read-out: IC50

Blank or dashed fields: not listed here. Conditions beyond the fields shown may differ between rows. ICn: concentration for n% inhibition.

smiles	method	mutations	result
CCC(=O)O[C@@H]1C[C@]2(C)[C@H]3CC=C4[C@@H]5CC(C)(C)CC[C@]5(C(=O)O)CC[C@@]4(C)[C@]3(C)CC[C@H]2C(C)(C)[C@H]1O	FRET	-	>1200 µg/mL
Cc1nc(COC(=O)N[C@H](C(=O)N[C@@H](Cc2ccccc2)[C@H](O)CN2CCN(Cc3ccc(F)cc3)C[C@H]2C(=O)NC(C)(C)C)C(C)C)cs1	substrate cleavage	-	0.0005 µM
CC1(C)CC[C@]2(C(=O)OCc3ccccc3)CC[C@]3(C)C(=CC[C@@H]4[C@@]5(C)CC[C@H](OC(=O)c6ccccc6)C(C)(C)[C@@H]5CC[C@]43C)[C@@H]2C1	FRET	-	>1200 µg/mL
CC(C)(C)NC(=O)[C@@H]1CSCN1C(=O)[C@@H](O)[C@H](Cc1ccccc1)NC(=O)[C@H](CS(C)(=O)=O)NC(=O)COc1cccc2ccccc12	-	-	<0.05 µM
CC(C)C[C@H](NC(=O)[C@@H](NC(=O)CCCCCCCCCCCCCCC(=O)N[C@@H](CC(N)=O)C(=O)N[C@@H](Cc1ccccc1)C(=O)O)C(C)O)C(=O)N[C@@H](Cc1cnc[nH]1)C(=O)O	-	-	125 µM
COc1ccc(CN2CCN(C[C@@H](O)[C@H](Cc3ccccc3)NC(=O)[C@@H](NC(=O)OCc3cnc(C(C)C)s3)C(C)C)[C@H](C(=O)NC(C)(C)C)C2)cc1OC	substrate cleavage	-	<0.0005 µM
CC(C)CNC(=O)[C@@H](NC(=O)[C@H](Cc1ccccc1)NC(=O)[C@H](O)[C@H](Cc1ccccc1)NC(=O)[C@@H](NC(=O)OC(C)(C)C)C(C)C)C(C)C	-	-	>5 µM
CC(C)[C@H](NC(=O)OCc1cncs1)C(=O)N[C@@H](Cc1ccccc1)[C@H](O)CN1CCN(Cc2cncs2)C[C@H]1C(=O)NC(C)(C)C	substrate cleavage	-	~0.0005 µM
CC1(C)CC[C@]2(C(=O)OCc3ccccc3)CC[C@]3(C)C(=CC[C@@H]4[C@@]5(C)CC[C@H](OC(=O)CCC(=O)O)C(C)(C)[C@@H]5CC[C@]43C)[C@@H]2C1	FRET	-	>1200 µg/mL
CC(C)(C)NC(=O)[C@@H]1CCCN1C(=O)[C@@H](O)[C@H](CC1CCCCC1)NC(=O)[C@H](CC(N)=O)NC(=O)COc1cccc2ccccc12	-	-	<0.05 µM
CC(C)[C@H](NC(=O)[C@@H](NC(=O)CCCCCCCCCCCCCCC(=O)N[C@@H](CC(N)=O)C(=O)N[C@@H](Cc1ccccc1)C(=O)O)C(C)O)C(=O)N[C@@H](Cc1ccccc1)C(N)=O	-	-	2.9 µM
CC(C)c1nc(CN(C)C(=O)N[C@H](C(=O)N[C@@H](Cc2ccccc2)[C@H](O)CN(C(C)C)S(=O)(=O)c2ccc(N)cc2)C(C)C)cs1	substrate cleavage	-	<0.0005 µM
CC[C@@H](C)[C@H](NC(=O)CN(CC1CCCCC1)C(=O)[C@H](O)[C@H](Cc1ccccc1)NC(=O)[C@H](CC(N)=O)NC(=O)OC(C)(C)C)C(=O)NCC1CCCCC1	-	-	>1000 µM
CCCCCC(=O)O[C@@H]1C[C@]2(C)[C@H]3CC=C4[C@@H]5CC(C)(C)CC[C@]5(C(=O)O)CC[C@@]4(C)[C@]3(C)CC[C@H]2C(C)(C)[C@H]1OC(=O)CCCCC	FRET	-	>1200 µg/mL
CC(C)C[C@H](NC(=O)[C@H](Cc1ccccc1)NC(=O)CCCCCCCCCCCCCCC(=O)N[C@@H](CC(N)=O)C(=O)N[C@@H](Cc1ccccc1)C(=O)O)C(=O)N[C@@H](Cc1ccccc1)C(N)=O	-	PR-L10I K45R I54V L63P A71V V82T L90M I93L	~0.7 µM
CC(=O)O[C@H]1CC[C@]2(C)[C@H]3CC=C4[C@@H]5CC(C)(C)CC[C@]5(C(=O)OCc5ccccc5)CC[C@@]4(C)[C@]3(C)CC[C@H]2C1(C)C	FRET	-	>1200 µg/mL
CC(C)(C)NC(=O)[C@@H]1Cc2ccccc2N1C(=O)[C@@H](O)[C@H](Cc1ccccc1)NC(=O)[C@H](CC(N)=O)NC(=O)OCc1ccccc1	-	-	>5 µM
COc1cc(CN2CCN(C[C@@H](O)[C@H](Cc3ccccc3)NC(=O)[C@@H](NC(=O)N(C)Cc3csc(C(C)C)n3)C(C)C)[C@H](C(=O)NC(C)(C)C)C2)ccc1O	substrate cleavage	-	<0.0005 µM
CC[C@H](C)[C@@H](C(=O)N[C@H](C(N)=O)C(C)C)N(C)C(=O)[C@@H]1CCCN1C(=O)[C@@H](O)[C@H](Cc1ccccc1)NC(=O)[C@H](CC(N)=O)NC(=O)CCc1ccccc1	-	-	>5 µM
CC(C)C[C@H](NC(=O)[C@@H](NC(=O)CCCCCCCCCCCCCCC(=O)N[C@@H](CC[N+](=O)[O-])C(=O)N[C@@H](Cc1ccccc1)C(=O)O)C(C)O)C(=O)N[C@@H](Cc1ccccc1)C(N)=O	-	-	1.98 µM
CC1(C)CC[C@]2(C(=O)O)CC[C@]3(C)C(=CC[C@@H]4[C@@]5(C)C[C@@H](OC(=O)c6ccccc6)[C@H](O)C(C)(C)[C@@H]5CC[C@]43C)[C@@H]2C1	FRET	-	>1200 µg/mL

For reference, 2 entries again:

CC(C)c1nc(CN(C)C(=O)N[C@H](C(=O)N[C@@H](Cc2ccccc2)[C@H](O)CN(C(C)C)S(=O)(=O)c2ccc(N)cc2)C(C)C)cs1 ; method: substrate cleavage ; result: <0.0005 µM
CC1(C)CC[C@]2(C(=O)O)CC[C@]3(C)C(=CC[C@@H]4[C@@]5(C)C[C@@H](OC(=O)c6ccccc6)[C@H](O)C(C)(C)[C@@H]5CC[C@]43C)[C@@H]2C1 ; method: FRET ; result: >1200 µg/mL